This data set deals with the molecule itself. Description: negative-stain TEM and DLS; purified biomineralized ferritin, 0.1 mg/mL; stained with 1% uranyl acetate, JEM-1400 80 kV TEM; DLS at 25 °C; assembly of the subunits into the protein cage.

B1: light chain ferritin from Homo sapiens (natural protein, UniProt P02792 1-175, looked up)
chain: MSSQIRQNYSTDVEAAVNSLVNLYLQASYTYLSLGFYFDRDDVALEGVSHFFRELAEEKREGYERLLKMQNQRGGRALFQDIKKPAEDEWGKTPDAMKAAMALEKKLNQALLDLHALGSARTDPHLCDFLETHFLDEEVKLIKKMGDHLTNLHRLGGPEAGLGEYLFERLTLKHD
notes: Homopolymer cage; also called LFn; source: E. coli BL21(DE3), pet22b, ferrous salt added to the medium (biomineralized), purified; copies: 24
Consider B1, for which the binding result is recorded as “binds”.

Values taken from publication PMC10764798, “A natural biogenic nanozyme for scavenging superoxide radicals” (Nature Communications, 2024).
